Substitutions are numbered along the chain they refer to. In names and notes the source's numbering stands.
B1: Y558A: RcSxph mutant, alanine for tyrosine at position 558 (protein)
chain: MAPTFQTALFFTIISLSFAAPNAKQVRWCAISDLEQKKCNDLVGSCNVPDITLVCVLRSSTEDCMTAIKDGQADAMFLDSGEVYEASKDPYNLKPIIAEPYSSNRDLQKCLKERQQALAKKMIGHYIPQCDEKGNYQPQQCHGSTGHCWCVNAMGEKISGTNTPPGQTRATCERHELPKCLKERQVALGGDEKVLGRFVPQCDEKGNYEPQQFHGSTGYSWCVNAIGEEIAGTKTPPGKIPATCQKHDLVTTCHYAVAMVKKSSAFQFNQLKGKRSCHSGVSKTDGWKALVTVLVEKKLLSWDGPAKESIQRAMSKFFSVSCIPGATQTNLCKQCKGEEGKNCKNSHDEPYYGNYGAFRCLKEDMGDVAFLRSTALSDEHSEVYELLCPDNTRKPLNKYKECNLGTVPAGTVVTRKISDKTEDINNFLMEAQKRQCKLFSSAHGKDLMFDDSTLQLALLSSEVDAFLYLGVKLFHAMKALTGDAHLPSKNKVRWCTINKLEKMKCDDWSAVSGGAIACTEASCPKGCVKQILKGEADAVKLEVQYMYEALMCGLLPAVEEYHNKDDFGPCKTPGSPATDFGTLRAVALVKKSNKDINWNNIKGKKSCHTGVGDIAGWVIPVSLIRRQNDNSDIDSFFGESCAPGSDTKSNLCKLCIGDPKNSAANTKCSLSDKEAYYGNQGAFRCLVEKGDVAFVPHTVVFENTDGKNPAVWAKNLKSEDFELLCLDGSRAPVSNYKSCKLSGIPPPAIVTREESISDVVRIVANQQSLYGRKGFEKDMFQLFSSNKGNNLLFNDNTQCLITFDRQPKDIMEDYFGKPYYTTVYGASRSAMSSELISACTIKHC
B2: Y558I: RcSxph mutant, isoleucine for tyrosine at position 558 (protein)
chain: B1 chain with A577I

Test: Isothermal titration calorimetry (ITC) of STX into Sxph
Conditions: 25° C., single binding site model

| Molecule | N (sites), stoichiometry |
| --- | --- |
| B1 | 1.01 ± 0.01 sites |
| B2 | 1.05 ± 0.03 sites |
